Pooled drug test results. Numbers come from NIAID ChemDB, via PubChem.

Common to all: whole-cell or culture tests; agent: Poliovirus; endpoint: inhibition

Percent inhibition refers to the dose given; in toxicity tests it is the harm to the cells. Rows are shuffled and stem from different studies.

smiles,strain,dose,cell line,result
c1ccc(C2COc3ccccc3C2)cc1,IA (TYPE 2),10 µM,HEP-2,70%
CC12CC[C@H](OS(=O)(=O)O)CC1=CCC1C2CCC2(C)C(C(=O)CO)CCC12,TYPE 3,80 µg/mL,VERO,1.4%
CC(O)c1ccc2c(c1)Sc1ccccc1S2,TYPE 3,0.4 µg/mL,BSC-1,12%
Clc1ccc(C2=Cc3ccccc3OC2)cc1,TYPE 2,10 µM,HEP-2,0%
CC(C)CCCC(COS(=O)(=O)O)C1CCC2C3CC=C4C[C@H](O)[C@@H](OS(=O)(=O)O)CC4(C)C3CCC12C,TYPE 3,40 µg/mL,VERO,20.5%
C=C(CC[C@@H](COS(=O)(=O)O)[C@H]1CC[C@H]2[C@@H]3CC[C@@H]4[C@H](O)[C@H](OS(=O)(=O)O)CC[C@]4(C)[C@H]3[C@@H](O)C[C@]12C)C(C)C,SABIN (TYPE 3),40 µg/mL,VERO,54%
Clc1ccc2c(c1)C=C(c1ccc(Br)cc1)CO2,TYPE 2,10 µM,HEP-2,26%
CC12CCC3C(C[C@H](OS(=O)(=O)O)[C@H]4C[C@@H](OS(=O)(=O)O)CCC34C)C1CCC2C(=O)CO,TYPE 3,80 µg/mL,VERO,15.7%
CCC(=O)C(CCCCCCOc1ccc(OC)cc1Cl)C(=O)CC,MEF (TYPE 2),1.08 µM,HeLa,100%
CC(=O)c1ccc2c(c1)Sc1ccccc1O2,TYPE 3,10 µg/mL,BSC-1,100%
Brc1ccc(C2=Cc3ccccc3OC2)cc1,TYPE 2,10 µM,HEP-2,0%
C/C(=N\O)c1ccc2c(c1)Sc1ccccc1S2,TYPE 3,2 µg/mL,BSC-1,22%
CC(C)C/C=C/[C@@H](COS(=O)(=O)O)[C@H]1CC[C@H]2[C@@H]3CC[C@@H]4[C@H](O)[C@H](OS(=O)(=O)O)CC[C@]4(C)[C@H]3[C@@H](O)C[C@]12C,SABIN (TYPE 3),40 µg/mL,VERO,47%
CC(=O)c1ccc2c(c1)[S@@](=O)c1ccccc1O2,TYPE 3,10 µg/mL,BSC-1,13%
Clc1ccc(C2CCc3ccccc3O2)c(Cl)c1,II (TYPE 2),10 µM,HEP-2,15%
CC(O)c1ccc2c(c1)S(=O)(=O)c1ccccc1O2,TYPE 3,2 µg/mL,BSC-1,12%
Clc1ccc(C2COc3ccccc3C2)cc1,SABIN (TYPE 2),10 µM,HEP-2,0%
CC(C)=CCCC(COS(=O)(=O)O)C1CCC2C3CC=C4C[C@H](O)[C@@H](OS(=O)(=O)O)CC4(C)C3CCC12C,TYPE 3,80 µg/mL,VERO,6.8%
CC(=O)c1ccc2c(c1)S(=O)(=O)c1ccccc1O2,TYPE 3,10 µg/mL,BSC-1,10%

Again, the opening 2 rows:

smiles	strain	dose	cell line	result
c1ccc(C2COc3ccccc3C2)cc1	IA (TYPE 2)	10 µM	HEP-2	70%
CC12CC[C@H](OS(=O)(=O)O)CC1=CCC1C2CCC2(C)C(C(=O)CO)CCC12	TYPE 3	80 µg/mL	VERO	1.4%